What was measured:
human erythrocytes [1] = assay type: cell-based; settings: human erythrocytes in the presence of lectin, 24 h, 4°C
Protocol: (§1) Viral (whole virus) and bacterial NA activity as well as their inhibition were measured by using a fluorescence (FL) assay with the substrate 2′-(4-methylumbelliferyl)-α-D-N-acetylneuraminic acid sodium salt hydrate (MUNANA, 100 μM; Sigma-Aldrich GmbH, Taufkirchen, Germany), and/or a hemagglutination (HA)-based NA inhibition assay (HA assay) with human erythrocytes (Institute of Transfusion Medicine, University Hospital Jena, Jena, Germany), both assays as published recently (Richter et al., [2015]). Recombinant NanA (rNanA) and total precipitated bacterial protein of S. pneumoniae DSM20566 were used in FL and HA assays. Interference of the compounds with the FL signal (self-fluorescence and quenching) was excluded as described previously (Richter et al., [2015]). […] Each compound was tested at least three times in both NA inhibition assays.
Supplementary Table 1. […]
eTest compounds lysed the human erythrocytes (4 h at 37°C and 12 h at 4°C).

human erythrocytes [2] = assay type: cell-based; settings: 2 h at 4°C
Protocol: as §1
Supplementary Table 1. Assay interference phenomena of test compounds in the HA-based […]
sample concentrations [µM] in viral HA-assay bacterial HA-assay […]
hem- prevention of erythrocyte hem- erythrocyte agglutinationa virus-induced lysisc agglutinationd lysise […]
cTest compounds lysed the human erythrocytes (2 h at 4°C). […]

SMILES | sample concentrations provoking hemagglutination, bacterial HA-assay (human erythrocytes [1]) | sample concentrations provoking hemagglutination, viral HA-assay (human erythrocytes [2]) | sample concentrations provoking prevention of virus-induced hemagglutination, viral HA-assay (human erythrocytes [2])
O=S(=O)(O)c1ccc(/N=N/c2ccc(/N=N/c3c(O)c(S(=O)(=O)O)cc4cc(S(=O)(=O)O)ccc34)cc2)cc1 [Compound 9] | no | no | no
O=S(=O)(O)c1ccc2c(/N=N/c3ccc(Sc4ccc(/N=N/c5c(O)ccc6cc(S(=O)(=O)O)ccc56)cc4)cc3)c(O)ccc2c1 [Compound 2] | no | no | 
O=[N+]([O-])c1ccc(/N=N/c2c(O)ccc3cc(S(=O)(=O)O)ccc23)cc1 [Compound 11] | no | no | no
Cc1cc(N=Nc2ccc(N=Nc3c(O)c(S(=O)(=O)O)cc4cc(S(=O)(=O)O)ccc34)cc2C)ccc1N=Nc1ccc2cc(S(=O)(=O)O)cc(S(=O)(=O)O)c2c1 [Compound 1, 7-[2-[4-[2-[4-[2-(2-hydroxy-3,6-disulfo-1-naphthalenyl)diazenyl]-2-methylphenyl]diazenyl]-2-methylphenyl]diazenyl]-1,3-naphthalenedisulfonic acid] | no | no | no
O=S(=O)(O)c1cc2cccc(S(=O)(=O)O)c2c(O)c1/N=N/c1ccccc1 [Compound 17] | no | no | no
O=S(=O)(O)c1ccc2c(/N=N/c3c(O)ccc4ccccc34)cccc2c1 [Compound 14] | no | 31.6 to 100 µM | no
O=S(=O)(O)c1cc(/N=N/c2c(O)ccc3ccccc23)c2c(S(=O)(=O)O)cccc2c1 [Compound 15] | no | 100 or no | no
O=S(=O)(O)c1ccc(/N=N/c2ccc(/N=N/c3ccc(O)c4ccccc34)cc2)cc1 [Compound 6] | no | 100 or no | no
COc1cc(/N=N/c2ccc(S(=O)(=O)O)cc2)ccc1/N=N/c1c(O)ccc2cc(S(=O)(=O)O)ccc12 [Compound 8] | no | no | no
O=S(=O)(O)c1ccc2c(/N=N/c3ccc(/N=N/c4ccccc4)cc3)c(O)ccc2c1 [Compound 3] | 31.6 to 100 µM | 3.16 to 100 µM | no
O=S(=O)(O)c1cc(S(=O)(=O)O)c2c(/N=N/c3cccc4ccccc34)c(O)ccc2c1 [Compound 16] | no | no | no
Cc1ccccc1/N=N/c1ccc(/N=N/c2c(O)ccc3cc(S(=O)(=O)O)ccc23)c(C)c1 [Compound 4] | no | 1 to 100 µM | no
O=S(=O)(O)c1ccc2c(/N=N/c3ccccc3)c(O)ccc2c1 [Compound 10] | no | 100 or no | no
Cc1ccccc1/N=N/c1ccc(/N=N/c2c(O)ccc3cc(S(=O)(=O)O)cc(S(=O)(=O)O)c23)c(C)c1 [Compound 5] | no | no | 
O=[N+]([O-])c1cccc(/N=N/c2c(O)c(S(=O)(=O)O)cc3cc(S(=O)(=O)O)ccc23)c1 [Compound 13] | no | no | no
O=[N+]([O-])c1ccc(/N=N/c2c(O)c(S(=O)(=O)O)cc3cc(S(=O)(=O)O)ccc23)cc1 [Compound 12] | no | no | no
COc1cc(/N=N/c2ccc(S(=O)(=O)O)cc2)ccc1/N=N/c1c(O)ccc2ccccc12 [Compound 7] | no | 1 to 100 µM | no

Source: PMC5309245, “Discovery and Characterization of Diazenylaryl Sulfonic Acids as Inhibitors of Viral and Bacterial Neuraminidases” (Frontiers in Microbiology, 2017)
